In assay [1] the test system is Speckled leaf blotch fungus (Septoria tritici). In words: Speckled leaf blotch anti-germ test (Test Example F). The note with it: for Speckled leaf blotch anti-germ test (rate of inhibition): 50 ppm/well, Czapek-dox broth, 25°C for 3 days, absorbance 600 nm.
The next assay has as its system Magnaporthe grisea. Briefly: Rice blast disease pot test (Test Example A). The settings on record: for Rice blast disease pot test (control value): 250 ppm sprayed, 2.5 ml/pot, rice variety Sachikaze, degree of disease development 6 to 8 days after inoculation.
For assay [2], the system named is Anthracnose fungus (Glomerella cingulata). In words: Anthracnose anti-germ test (Test Example E). The note with it: for Anthracnose anti-germ test (rate of inhibition): 50 ppm/well, Czapek-dox broth, 25°C for 3 days, absorbance 600 nm.
Assay [3] concerns Gray mold fungus (Botrytis cinerea). In words: Gray mold anti-germ test (Test Example C). The settings on record: for Gray mold anti-germ test (rate of inhibition): 50 ppm/well, Czapek-dox broth, 25°C for 3 days, absorbance 600 nm.
For assay [4], the system named is Fusarium blight fungus (Fusarium graminearum). Briefly: Fusarium blight anti-germ test (Test Example D). The note with it: for Fusarium blight anti-germ test (rate of inhibition): 50 ppm/well, Czapek-dox broth, 25°C for 3 days, absorbance 600 nm.
The next assay relates to Botrytis cinerea. In words: Tomato gray mold pot test (Test Example B). The settings on record: for Tomato gray mold pot test (control value): 250 ppm sprayed, 2.5 ml/pot, tomato variety Oogata Fukuju, degree of disease development 2 to 3 days after inoculation.

Structures are written as SMILES.

With `Cc1cccc2c1[S+]([O-])C(C)(C)N=C2n1cnc2c(C)c(C)ccc21` (stereo not drawn), the “Speckled leaf blotch anti-germ test (rate of inhibition)” value in assay [1] is “L (L represents a control value or rate of inhibition of 50% or less)”. Further, the “Rice blast disease pot test (control value)” value (“Rice blast disease pot test” below) with Magnaporthe grisea was “H (H represents a control value or rate of inhibition of larger than 50%)”. Besides, the “Anthracnose anti-germ test (rate of inhibition)” value in assay [2] is recorded as “H (H represents a control value or rate of inhibition of larger than 50%)”. In addition, the “Gray mold anti-germ test (rate of inhibition)” value in assay [3] is recorded as “H (H represents a control value or rate of inhibition of larger than 50%)”. Also, the “Fusarium blight anti-germ test (rate of inhibition)” value in assay [4] is given as “H (H represents a control value or rate of inhibition of larger than 50%)”. In the assay with Botrytis cinerea, the “Tomato gray mold pot test (control value)” value (from here on “Tomato gray mold pot test”) is “H (H represents a control value or rate of inhibition of larger than 50%)”.
In the case of `CCOCC1(C)N=C(c2cnn3cccc(C)c23)c2ccccc2O1` (stereo not drawn), the rate of inhibition result is reported as “L (L represents a control value or rate of inhibition of 50% or less)” in assay [1] (Test Example F, speckled leaf blotch anti-germ test); “H (H represents a control value or rate of inhibition of larger than 50%)” in assay [2] (Test Example E, anthracnose anti-germ test); “L (L represents a control value or rate of inhibition of 50% or less)” in assay [3] (Test Example C, gray mold anti-germ test); “L (L represents a control value or rate of inhibition of 50% or less)” in assay [4] (Test Example D, Fusarium blight anti-germ test). The control value entry was “H (H represents a control value or rate of inhibition of larger than 50%)” with Magnaporthe grisea (Test Example A, rice blast disease pot test) and “L (L represents a control value or rate of inhibition of 50% or less)” in the assay with Botrytis cinerea (Test Example B, tomato gray mold pot test).
In the case of `Cc1ccc2c(ncn2C2=NC(C)(C)Sc3c(F)cccc32)c1C`, in assay [1], the “Speckled leaf blotch anti-germ test (rate of inhibition)” value is reported as “H (H represents a control value or rate of inhibition of larger than 50%)”. In addition, the “Rice blast disease pot test” value in the assay with Magnaporthe grisea is recorded as “H (H represents a control value or rate of inhibition of larger than 50%)”. Besides, in assay [2], the “Anthracnose anti-germ test (rate of inhibition)” value is recorded as “H (H represents a control value or rate of inhibition of larger than 50%)”. Moreover, the “Gray mold anti-germ test (rate of inhibition)” value in assay [3] was “H (H represents a control value or rate of inhibition of larger than 50%)”. In assay [4], the “Fusarium blight anti-germ test (rate of inhibition)” value is given as “H (H represents a control value or rate of inhibition of larger than 50%)”. Besides, the “Tomato gray mold pot test” value in the assay on Botrytis cinerea is given as “H (H represents a control value or rate of inhibition of larger than 50%)”.
As to `COc1cccc2c1ncn2C1=NC(C)(C)Oc2c(F)cccc21`, the “Speckled leaf blotch anti-germ test (rate of inhibition)” value in assay [1] is “L (L represents a control value or rate of inhibition of 50% or less)”. The “Rice blast disease pot test” value with Magnaporthe grisea is reported as “L (L represents a control value or rate of inhibition of 50% or less)”. Moreover, the “Anthracnose anti-germ test (rate of inhibition)” value in assay [2] is listed as “H (H represents a control value or rate of inhibition of larger than 50%)”. Also, the “Gray mold anti-germ test (rate of inhibition)” value in assay [3] is “L (L represents a control value or rate of inhibition of 50% or less)”. In addition, in assay [4], the “Fusarium blight anti-germ test (rate of inhibition)” value is “L (L represents a control value or rate of inhibition of 50% or less)”. In addition, the “Tomato gray mold pot test” value in the assay on Botrytis cinerea is given as “L (L represents a control value or rate of inhibition of 50% or less)”.
Take `CCC(C)C1(C)N=C(n2cnc3c(C)c(C)ccc32)c2ccc(C)cc2O1` (stereo not drawn): the “Speckled leaf blotch anti-germ test (rate of inhibition)” value in assay [1] is recorded as “L (L represents a control value or rate of inhibition of 50% or less)”. For the same compound, in the assay with Magnaporthe grisea, the “Rice blast disease pot test” value is “H (H represents a control value or rate of inhibition of larger than 50%)”. Besides, in assay [2], the “Anthracnose anti-germ test (rate of inhibition)” value was “H (H represents a control value or rate of inhibition of larger than 50%)”. Also, in assay [3], the “Gray mold anti-germ test (rate of inhibition)” value is “H (H represents a control value or rate of inhibition of larger than 50%)”. In addition, the “Fusarium blight anti-germ test (rate of inhibition)” value in assay [4] is “H (H represents a control value or rate of inhibition of larger than 50%)”. The “Tomato gray mold pot test” value with Botrytis cinerea was “H (H represents a control value or rate of inhibition of larger than 50%)”.

These data come from EP4821928A1, “BICYCLIC HETEROCYCLIC COMPOUND AND FUNGICIDE FOR AGRICULTURAL AND HORTICULTURAL USE CONTAINING SAME AS ACTIVE INGREDIENT” (dated 2026).
